Measured values as given in paper PMC9270327 (Communications Biology, 2022).

The chains behind the UniProt entries cited, without tags or fusion partners. Residues count along the entry.
UniProt Q9Y5Y6, whole entry: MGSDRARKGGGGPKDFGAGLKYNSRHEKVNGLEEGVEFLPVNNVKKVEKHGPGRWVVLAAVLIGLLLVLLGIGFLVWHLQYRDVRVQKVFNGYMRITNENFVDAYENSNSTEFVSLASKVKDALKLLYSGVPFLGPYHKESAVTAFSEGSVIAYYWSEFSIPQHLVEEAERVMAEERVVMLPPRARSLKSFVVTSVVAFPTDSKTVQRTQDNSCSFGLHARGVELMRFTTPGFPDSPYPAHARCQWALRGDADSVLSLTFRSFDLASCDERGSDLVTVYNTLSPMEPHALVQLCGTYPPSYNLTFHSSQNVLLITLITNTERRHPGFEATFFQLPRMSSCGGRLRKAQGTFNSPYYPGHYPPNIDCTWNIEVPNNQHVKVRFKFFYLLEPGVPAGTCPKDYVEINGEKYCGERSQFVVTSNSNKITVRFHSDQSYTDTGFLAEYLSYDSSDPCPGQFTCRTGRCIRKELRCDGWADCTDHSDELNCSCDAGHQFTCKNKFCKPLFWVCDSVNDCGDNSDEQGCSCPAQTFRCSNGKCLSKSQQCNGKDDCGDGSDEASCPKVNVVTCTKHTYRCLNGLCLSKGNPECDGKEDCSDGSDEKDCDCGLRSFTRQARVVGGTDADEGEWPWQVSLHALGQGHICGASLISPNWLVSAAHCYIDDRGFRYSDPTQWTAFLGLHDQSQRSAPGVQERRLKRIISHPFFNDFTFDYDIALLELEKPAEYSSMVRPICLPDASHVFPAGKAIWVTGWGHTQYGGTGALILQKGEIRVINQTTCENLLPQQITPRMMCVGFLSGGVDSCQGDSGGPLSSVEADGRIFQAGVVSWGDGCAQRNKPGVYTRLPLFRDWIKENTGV
UniProt P00742, 235-488 limits assumed: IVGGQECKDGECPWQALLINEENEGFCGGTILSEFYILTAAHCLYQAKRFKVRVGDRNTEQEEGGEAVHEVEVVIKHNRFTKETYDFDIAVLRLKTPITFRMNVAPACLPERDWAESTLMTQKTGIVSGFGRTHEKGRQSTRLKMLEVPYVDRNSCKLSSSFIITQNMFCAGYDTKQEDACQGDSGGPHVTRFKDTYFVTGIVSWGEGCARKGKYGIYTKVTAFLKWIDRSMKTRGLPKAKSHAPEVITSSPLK
UniProt P00742, 41-179 partner limits assumed: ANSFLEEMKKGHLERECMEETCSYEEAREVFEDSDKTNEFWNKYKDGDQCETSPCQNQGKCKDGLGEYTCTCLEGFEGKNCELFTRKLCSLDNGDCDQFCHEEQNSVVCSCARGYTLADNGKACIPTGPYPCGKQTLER
UniProt O15393, whole entry: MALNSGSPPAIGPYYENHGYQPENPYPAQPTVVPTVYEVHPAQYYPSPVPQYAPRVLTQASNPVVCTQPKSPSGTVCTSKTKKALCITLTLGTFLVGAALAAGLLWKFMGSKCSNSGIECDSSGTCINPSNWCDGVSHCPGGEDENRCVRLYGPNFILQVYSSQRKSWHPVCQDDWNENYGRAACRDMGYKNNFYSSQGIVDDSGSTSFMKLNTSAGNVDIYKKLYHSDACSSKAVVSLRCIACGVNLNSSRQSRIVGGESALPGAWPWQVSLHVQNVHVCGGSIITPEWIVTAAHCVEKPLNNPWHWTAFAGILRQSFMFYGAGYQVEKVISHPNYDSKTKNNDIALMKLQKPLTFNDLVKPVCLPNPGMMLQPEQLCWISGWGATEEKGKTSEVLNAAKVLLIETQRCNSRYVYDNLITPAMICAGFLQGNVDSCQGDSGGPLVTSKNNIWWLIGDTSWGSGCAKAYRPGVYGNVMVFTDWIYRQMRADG

Tests used:
[1] = target: recombinant human matriptase (Homo sapiens, UniProt Q9Y5Y6); experiment: Enzyme inhibition assay with purified matriptase (Ki, dose-response); assay type: biochemical
[2] = target: recombinant human thrombin (Homo sapiens, UniProt P00734); experiment: Enzyme inhibition assay with purified thrombin (Ki, dose-response); assay type: biochemical
factor Xa = factor Xa (Homo sapiens, UniProt P00742); experiment: Enzyme inhibition assay with purified factor Xa (Ki, dose-response); assay type: biochemical; conditions: for factor Xa activity, Mean (Fig. 2d): normalized, 0 nM = 100
[3] = target: TMPRSS2 expressed in HEK293T cells (Homo sapiens, UniProt O15393); experiment: Inhibition of cellular TMPRSS2 activity on HEK293T cells transiently expressing TMPRSS2; assay type: cell-based; conditions: 2 h; for normalized fluorescence intensity, HEK293T TMPRSS2, Mean (Fig. 4b): corrected for mock-transfected cells
[4] = tested on: lentiviral pseudoparticles carrying SARS-CoV-2 Wuhan-Hu-1 spike, Caco-2 cells; experiment: Pseudovirus inhibition assay, wild-type (Wuhan-Hu-1) spike; conditions: for SARS-CoV-2 spike driven entry, Mean (0 nM = 100): Fig. 5a, Wuhan-Hu-1 spike pseudoparticles
[5] = tested on: lentiviral pseudoparticles carrying SARS-CoV-2 Alpha (B.1.1.7) spike, Caco-2 cells; experiment: Pseudovirus inhibition assay, Alpha spike; conditions: for SARS-CoV-2 spike driven entry, Mean (0 nM = 100): Fig. 5b, Alpha spike pseudoparticles
[6] = tested on: lentiviral pseudoparticles carrying SARS-CoV-2 Beta (B.1.351) spike, Caco-2 cells; experiment: Pseudovirus inhibition assay, Beta spike; conditions: for SARS-CoV-2 spike driven entry, Mean (0 nM = 100): Fig. 5c, Beta spike pseudoparticles
[7] = tested on: lentiviral pseudoparticles carrying SARS-CoV-2 Delta (B.1.617.2) spike, Caco-2 cells; experiment: Pseudovirus inhibition assay, Delta spike; conditions: Fig. 5d; compound 3.2 nM; Delta spike pseudoparticles

In the case of `CC(=O)N[C@H](CCCNC(=N)N)C(=O)N[C@@H](CC1CCC1)C(=O)NC(CCCNC(=N)N)C(=O)c1nc2ccccc2s1` (stereo partly drawn), the Selectivity index Matriptase ([1]; quotient Ki matriptase / Ki TMPRSS2) is reported as 0.5, the Ki ([1]; read-out: Ki Matriptase, 30 min preincubation, substrate Boc-Gln-Ala-Arg-AMC) is reported as 30 nM and the “Ki Thrombin” value ([2]; 30 min preincubation, substrate D-Phe-Homopro-Arg-pNA) is reported as “n.i”. The Selectivity index Thrombin ([2]; quotient Ki thrombin / Ki TMPRSS2) was over 867, the Ki ([2]; read-out: Ki Thrombin, 30 min preincubation, substrate D-Phe-Homopro-Arg-pNA) was over 50000 nM and the “factor Xa activity, Mean (Fig. 2d)” value (factor Xa; 0.02 nM) was 80.6823. For the same molecule, the “factor Xa activity, Mean (Fig. 2d)” value (factor Xa; 0.04 nM) was 88.0695, the “factor Xa activity, Mean (Fig. 2d)” value (factor Xa; 0.2 nM) was 90.3417 and the “factor Xa activity, Mean (Fig. 2d)” value (factor Xa; 2 nM) was 86.223. The “factor Xa activity, Mean (Fig. 2d)” value (factor Xa; 20 nM) was 73.4383, the “factor Xa activity, Mean (Fig. 2d)” value (factor Xa; 200 nM) was 51.421 and the “factor Xa activity, Mean (Fig. 2d)” value (factor Xa; 10000 nM) was 14.3467. The “factor Xa activity, Mean (Fig. 2d)” value (factor Xa; 100000 nM) was 8.523, the “factor Xa activity, Mean (control = 100), S6c” value (from here on “factor Xa activity, Mean … S6c”) (factor Xa; inhibitor 0.02 nM) was 80.6823 and the “factor Xa activity, Mean … S6c” value (factor Xa; inhibitor 0.04 nM) was 88.0695. For the same molecule, the “factor Xa activity, Mean … S6c” value (factor Xa; inhibitor 0.2 nM) was 90.3417, the “factor Xa activity, Mean … S6c” value (factor Xa; inhibitor 2 nM) was 86.223 and the “factor Xa activity, Mean … S6c” value (factor Xa; inhibitor 20 nM) was 73.4383. For the same molecule, the “factor Xa activity, Mean … S6c” value (factor Xa; inhibitor 200 nM) was 51.421, the “factor Xa activity, Mean … S6c” value (factor Xa; inhibitor 10000 nM) was 14.3467 and the “factor Xa activity, Mean … S6c” value (factor Xa; inhibitor 100000 nM) was 8.523. For the same molecule, the Selectivity index Factor Xa (factor Xa; quotient Ki factor Xa / Ki TMPRSS2) was 1.6, the Ki (factor Xa; read-out: Ki Factor Xa, 30 min preincubation, substrate Bz-Ile-Glu-Gly-Arg-pNA) was 94.1 nM and the “normalized fluorescence intensity, HEK293T TMPRSS2, Mean (Fig. 4b)” value (“normalized fluorescence intensity” for short) ([3]; 0.5 nM) was 64.65. For the same molecule, the “normalized fluorescence intensity” value ([3]; 5 nM) was 70.345, the “normalized fluorescence intensity” value ([3]; 50 nM) was 54.405 and the “normalized fluorescence intensity” value ([3]; 500 nM) was 27.55. For the same molecule, the “normalized fluorescence intensity” value ([3]; 5000 nM) was 3.035, the “normalized fluorescence intensity” value ([3]; 50000 nM) was -6.25 and the IC50 ([3]; read-out: IC50 HEK293T TMPRSS2, corrected for mock-transfected HEK293T cells) was 27.9 nM. The “SARS-CoV-2 spike driven entry, Mean (0 nM = 100)” value (from here on “SARS-CoV-2 spike driven entry”) ([4]; compound 32 nM) was 85.6235, the “SARS-CoV-2 spike driven entry” value ([4]; compound 160 nM) was 86.7995 and the “SARS-CoV-2 spike driven entry” value ([4]; compound 800 nM) was 64.438. The “SARS-CoV-2 spike driven entry” value ([4]; compound 4000 nM) was 44.7705, the “SARS-CoV-2 spike driven entry” value ([4]; compound 20000 nM) was 12.775 and the “SARS-CoV-2 spike driven entry” value ([4]; compound 100000 nM) was 2.464. The IC50 ([4]; read-out: IC50 pseudotyped lentivirus Wuhan-Hu-1, Caco-2 cells, luciferase 2 days post transduction) was 2070 nM, the “SARS-CoV-2 spike driven entry” value ([5]; compound 3.2 nM) was 88.3815 and the “SARS-CoV-2 spike driven entry” value ([5]; compound 16 nM) was 81.246. For the same molecule, the “SARS-CoV-2 spike driven entry” value ([5]; compound 80 nM) was 81.0905, the “SARS-CoV-2 spike driven entry” value ([5]; compound 400 nM) was 76.6315 and the “SARS-CoV-2 spike driven entry” value ([5]; compound 2000 nM) was 52.42. For the same molecule, the “SARS-CoV-2 spike driven entry” value ([5]; compound 10000 nM) was 21.5405, the “SARS-CoV-2 spike driven entry” value ([5]; compound 50000 nM) was 4.0885 and the IC50 ([5]; read-out: IC50 pseudotyped lentivirus Alpha, Caco-2 cells, luciferase 2 days post transduction) was 1600 nM. The “SARS-CoV-2 spike driven entry” value ([6]; compound 3.2 nM) was 80.182, the “SARS-CoV-2 spike driven entry” value ([6]; compound 16 nM) was 79.3105 and the “SARS-CoV-2 spike driven entry” value ([6]; compound 80 nM) was 77.8645. The “SARS-CoV-2 spike driven entry” value ([6]; compound 400 nM) was 68.1425, the “SARS-CoV-2 spike driven entry” value ([6]; compound 2000 nM) was 45.4625 and the “SARS-CoV-2 spike driven entry” value ([6]; compound 10000 nM) was 19.5785. The “SARS-CoV-2 spike driven entry” value ([6]; compound 50000 nM) was 3.8345, the IC50 ([6]; read-out: IC50 pseudotyped lentivirus Beta, Caco-2 cells, luciferase 2 days post transduction) was 921 nM and the “SARS-CoV-2 spike driven entry” value [7] was 92.9751.
